Data from article PMC7077986, “Molecular basis for catabolism of the abundant metabolite trans-4-hydroxy-L-proline by a microbial glycyl radical enzyme” (eLife, 2020).

System: O=C(O)[C@@H]1C[C@@H](O)CN1
Experiment: purified protein
Settings: activated by HypD-AE, 20 mM Tris-HCl pH 7.5, 50 mM bicine, 100 mM KCl, 400 µM NADH, anaerobic

| Substance | Km (kcat is glycyl radical-normalized (un-normalized 0.75 ± 0.01 s^-1)) | Km (kcat is glycyl radical-normalized (un-normalized 0.33 ± 0.01 s^-1)) |
| --- | --- | --- |
| HypD (trans-4-hydroxy-L-proline dehydratase; CdHypD) (Clostridioides difficile; T645A) | 4.9 ± 0.4 mM | – |
| HypD (trans-4-hydroxy-L-proline dehydratase; CdHypD) (Clostridioides difficile; Y450F) | – | 19 ± 3 mM |
